Experiments:
[1] = target: S1-C9 (SARS-CoV (Tor2 isolate)) (UniProt P59594); experiment: phage ELISA, S1-C9 coated 0.2 µg per well
[2] = target: S1-Ig (SARS-CoV (Tor2 isolate); human) (UniProt P59594); experiment: SPR (BIAcore 3000), S1-Ig amine-coupled to CM5 chip
[3] = target: S1(327-510)-Ig (SARS-CoV (Tor2 isolate); human) (UniProt P59594); experiment: radioimmunoprecipitation with 80R scFv beads, normalized to Protein A

**Q.** Which A450 [1] does the source give for 80R scFv here?
**A.** > 1 A450

**Q.** What about the Ka [2] of the same substance?
**A.** 3.1e+07 M⁻¹

**Q.** What about the Kd [2] of the same substance?
**A.** 0.0323 µM

**Q.** And the koff [2]?
**A.** 0.00836 s⁻¹

**Q.** What about the kon [2] of the same substance?
**A.** 229000 M⁻¹ s⁻¹

**Q.** And the percent of the amount that Protein A precipitated [3]?
**A.** 5%

Source: patent US7750123B2
